Source: paper PMC9605875, “Structure of trimeric pre-fusion rabies virus glycoprotein in complex with two protective antibodies” (2022)

Molecular target: RVC20 IgG conjugated to Alexa Fluor 647
Assay: Flow cytometry (BD LSRFortessa), median fluorescence intensity
Details: pH 5.8-7.4, room temperature, PBS at neutral pH, 130 mM NaCl at pH 5.8, PBS (pH 7.3 in Methods, 7.4 in the Figure 2 legend), 50 mM Bis-Tris

Substance | MFI after binding at pH 5.8 as a proportion of that at pH 7.4 (ratio of MFI (pH 5.8 / pH 7.4))
RABV-G wild type, C-terminal GFP-His6 fusion, cell-surface expressed | 0.12
RABV-G wild type, untagged, cell-surface expressed | 0.11
